Values of other authors, collected in paper PMC8763392.

The chains behind the UniProt entries cited, without tags or fusion partners. Residues count along the entry.
UniProt P02708, 21-457: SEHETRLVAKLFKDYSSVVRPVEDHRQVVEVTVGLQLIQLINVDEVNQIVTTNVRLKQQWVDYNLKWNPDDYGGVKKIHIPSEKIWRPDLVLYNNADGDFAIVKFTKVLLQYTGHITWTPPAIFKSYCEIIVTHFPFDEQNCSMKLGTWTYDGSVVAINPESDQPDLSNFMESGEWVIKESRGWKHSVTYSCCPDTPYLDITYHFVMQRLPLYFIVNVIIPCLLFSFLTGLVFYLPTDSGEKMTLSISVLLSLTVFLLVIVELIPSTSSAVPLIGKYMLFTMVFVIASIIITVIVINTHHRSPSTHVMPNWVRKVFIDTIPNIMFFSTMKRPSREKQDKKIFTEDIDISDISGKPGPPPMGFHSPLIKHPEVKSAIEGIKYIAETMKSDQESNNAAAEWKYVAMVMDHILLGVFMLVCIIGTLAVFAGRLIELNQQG
UniProt P04756, 21-457: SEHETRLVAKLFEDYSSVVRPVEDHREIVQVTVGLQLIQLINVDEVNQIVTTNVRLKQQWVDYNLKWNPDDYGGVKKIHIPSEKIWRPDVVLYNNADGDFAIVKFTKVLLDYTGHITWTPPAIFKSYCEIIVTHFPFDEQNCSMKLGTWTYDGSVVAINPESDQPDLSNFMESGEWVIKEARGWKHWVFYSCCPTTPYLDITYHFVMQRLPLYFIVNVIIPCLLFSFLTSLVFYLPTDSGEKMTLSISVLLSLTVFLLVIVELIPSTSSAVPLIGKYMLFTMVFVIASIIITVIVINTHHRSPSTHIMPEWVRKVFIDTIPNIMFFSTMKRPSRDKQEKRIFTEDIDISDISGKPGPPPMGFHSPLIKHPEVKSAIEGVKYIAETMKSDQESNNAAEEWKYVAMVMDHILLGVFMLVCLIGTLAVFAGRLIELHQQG

Columns and labels:
[1] = target: muscle-type nAChR (Homo sapiens) (UniProt P02708); details: cited from earlier work
nAChR α1 (Mus musculus) = nAChR α1 (Mus musculus) (UniProt P04756); details: cited from earlier work

For α-bungarotoxin (from UniProt P60615), the Kd [1] is given as 0.27 nM and the Kd (nAChR α1 (Mus musculus)) is given as 0.2 nM.
